Experimental data as given in paper PMC9863987, “Identification of Aryl Polyamines Derivatives as Anti-Trypanosoma cruzi Agents Targeting Iron Superoxide Dismutase” (Pharmaceutics, 2022).

Columns and labels:
Type in all cases: cell-based, Trypanosoma cruzi
Conditions in all cases: vs BZN
[1] = test system: T. cruzi SN3 strain epimastigotes; test: Screening against extracellular epimastigotes, SN3 strain (resazurin)
Procedure: (§1) Three different T. cruzi […] strains—MHOM/Pe/2011/Arequipa, discrete typing unit (DTU) V [26]; IRHOD/CO/2008/SN3, DTU I [27]; TINF/CH/1956/Tulahuen, DTU VI [26]—were grown at 28 °C in Gibco® RPMI 1640 Medium supplemented as previously reported, and used for in vitro screening.
(§2) Trypanocidal activity against epimastigotes was tested as previously reported. In brief, 5 × 10^5 mL^−1 epimastigotes culture medium were treated by adding the compounds in serial dilutions from 100 to 0.2 µM in 96-well plates (200 µL·well^−1) for 48 h. BZN and untreated growth control were also included in triplicate. Later, 20 μL of resazurin sodium salt (Sigma-Aldrich, St. Louis, MO, USA) was added, and the plates were incubated for another 24 h. Finally, the absorbance of the wells was measured at 570/600 nm and related to the control. The trypanocidal activity was expressed as the IC50 (inhibitory concentration 50) value using GraphPad Prism 6 software.

[2] = test system: T. cruzi Tulahuen strain trypomastigotes; test: Screening against bloodstream trypomastigotes, Tulahuen strain (resazurin)
[3] = test system: T. cruzi Tulahuen strain epimastigotes; test: Screening against extracellular epimastigotes, Tulahuen strain (resazurin)
Procedure: as §1, §2

[4] = test system: T. cruzi Tulahuen strain amastigotes; test: Screening against intracellular amastigotes in Vero cells, Tulahuen strain (Giemsa counting)
Procedure: (§3) TINF/CH/1956/Tulahuen, DTU VI [26]—were grown at 28 °C in Gibco® RPMI 1640 Medium supplemented as previously reported, and used for in vitro screening. Trypanocidal activity against amastigotes was tested as previously reported. In brief, bloodstream trypomastigotes (BTs), obtained by cardiac puncture from infected BALB/c mice, were used to infect 1 × 10^4 Vero cells·well^−1 in 24-well plates with rounded coverslips at a multiplicity of infection (MOI) ratio of 10:1. After 24 h of infection, non-internalized trypomastigotes were washed and the infected cells were treated by adding the compounds in serial dilutions from 50 to 0.5 µM in […] for 72 h. BZN and untreated growth controls were also included in triplicate. Later, the number of amastigotes and infected cells were determined in Giemsa stained preparations by analysing 500 host cells randomly distributed in microscopic fields. The trypanocidal activity was expressed as the IC50 using GraphPad Prism 6 software (version 6.07).

[5] = test system: T. cruzi Arequipa strain epimastigotes; test: Screening against extracellular epimastigotes, Arequipa strain (resazurin)
Procedure: as §1, §2

[6] = test system: T. cruzi Arequipa strain amastigotes; test: Screening against intracellular amastigotes in Vero cells, Arequipa strain (Giemsa counting)
Procedure: as §3

[7] = test system: T. cruzi Arequipa strain trypomastigotes; test: Screening against bloodstream trypomastigotes, Arequipa strain (resazurin)

Compound	number of times that compound exceeds the reference drug SI (in brackets) [1]	number of times that compound exceeds the reference drug SI (in brackets) [2]	number of times that compound exceeds the reference drug SI (in brackets) [3]	number of times that compound exceeds the reference drug SI (in brackets) [4]	number of times that compound exceeds the reference drug SI (in brackets) [5]	number of times that compound exceeds the reference drug SI (in brackets) [6]	number of times that compound exceeds the reference drug SI (in brackets) [7]
CN(C)c1cccc2c(S(=O)(=O)N(CCNCc3cccnc3)CCNCc3cccnc3)cccc12 [Compound 8]	2	2	3	1	1		
c1cc2nc(c1)CNCCN(CCNCc1ccc3ccc4ccc(CNCCN5CCNCc6cccc(n6)CNCC5)nc4c3n1)CCNC2 [Compound 15]	18	16	14	12	21	27	63
c1cncc(CNCCN(CCNCc2cccnc2)Cc2ccc3ccccc3c2)c1 [Compound 2]	3		1		3	1	1
